Pooled drug test results. Numbers come from NIAID ChemDB, via PubChem.

A number after MIC or MFC names an inhibition level or a share of isolates.

structure | endpoint | protein | agent | test | cell line | tested at | strain | read by | result
O=c1[nH]c(=O)n([C@@H]2O[C@H](CO)[C@@H](O)[C@@H]2O)cc1/C=C/Br | inhibition |  | Varicella zoster virus | culture | HELF | 0.01 µg/mL | OKA | plaque count | 100%
O=S(=O)([O-])c1ccc(O)c2ccccc12 | inhibition |  | Herpes simplex virus | culture | Human amnion AV3 cells | 5 µg/mL |  | cytopathic effect | 0%
Cc1ccnc2c1NC(=O)c1cccnc1N2C1CC1 | IC50 | DNA polymerase gamma | Human | host protein |  |  |  |  | >24 µM
OCc1ccc(-c2cncc(N3CCN(c4ccccn4)CC3)n2)cc1 | inhibition | UL97 kinase | Cytomegalovirus | target |  | 1 µM |  |  | <50%
CN(Cc1ccc2nc(N)nc(N)c2n1)c1cccc(Cl)c1 | IC50 | Dihydrofolate reductase | Cryptosporidium parvum | target |  |  | TYPE 1 |  | 0.024 µM
CN(C)c1ccc(-c2cncc(N3CCN(c4ccc(Cl)cc4)CC3)n2)cc1 | inhibition | UL97 kinase | Cytomegalovirus | target |  | 10 µM |  |  | >15%
CCC(CC)[C@H](NC(C)=O)[C@@H]1[C@H](O)[C@@H](C(=O)O)C[C@H]1N=C(N)N | EC50 |  | Influenza A virus | culture | MDCK |  | Influenza A/Sydney/05/97 (H3N2) | visual reading | 0.12 µM
O=c1[nH]c(=O)n([C@@H]2O[C@H](CO)[C@@H](O)[C@@H]2O)cc1/C=C/Cl | inhibition |  | Varicella zoster virus | culture | HELF | 0.01 µg/mL | Asahikawa | plaque count | 100%
Cc1cc(-c2ccc(N=Nc3c(S(=O)(=O)O)cc4cc(S(=O)(=O)O)cc(N)c4c3O)c(C)c2)ccc1N=Nc1c(S(=O)(=O)O)cc2cc(S(=O)(=O)O)cc(N)c2c1O | inhibition |  | Adenovirus | culture | Human embryonic lung cells | 50 µg/mL | TYPE 3 | cytopathic effect | 20%
CCOC(=O)c1ccc(OCCC2CCN(c3ccc(C)nn3)CC2)cc1 | EC50 |  | Rhinovirus | culture | KB |  | 56822 (ICAM-1 receptor group 42) | neutral red | 0.041 µM
c1ccc(C2CCN(c3cncc(-c4cccc5ccccc45)n3)CC2)cc1 | IC50 | UL97 kinase | Cytomegalovirus | target |  |  |  |  | <100 µM
O=S(=O)(O)c1cc(O)c2c(O)cc(S(=O)(=O)O)cc2c1 | inhibition |  | Adenovirus | culture | Human embryonic lung cells | 5 µg/mL | TYPE 3 | cytopathic effect | 0%
O=c1[nH]c(=O)n([C@H]2C[C@H](O)[C@@H](CO)O2)cc1I | inhibition |  | Varicella zoster virus | culture | HELF | 10 µg/mL | OKA | plaque count | 100%
COc1ccc(-c2cncc(N3CCN(c4ccc(Cl)c(Cl)c4)CC3)n2)cc1OC | inhibition | UL97 kinase | Cytomegalovirus | target |  | 10 µM |  |  | >15%
O=S(=O)([O-])c1ccc2c(O)cc(S(=O)(=O)[O-])cc2c1 | inhibition |  | Herpes simplex virus | culture | Human conjunctiva cells | 50 µg/mL |  | cytopathic effect | 0%
COc1cc(NCc2ccc3nc(N)nc(N)c3c2Cl)c(Br)c(OC)c1OC | IC50 | Dihydrofolate reductase | Cryptosporidium parvum | target |  |  | TYPE 2 |  | >10 µM
O=S(=O)(O)c1cc(O)c2c(O)c(N=Nc3ccccc3)c(S(=O)(=O)O)cc2c1 | inhibition |  | Adenovirus | culture | Human amnion AV3 cells | 10 µg/mL | TYPE 3 | cytopathic effect | 5%
O=c1[nH]c(=O)n([C@H]2C[C@H](O)[C@@H](CO)O2)cc1/C=C/Br | inhibition |  | Varicella zoster virus | culture | HELF | 0.001 µg/mL | HIRAI | plaque count | 4%
O=C(Nc1ccc2c(O)c(N=Nc3ccc(N=Nc4ccc(S(=O)(=O)O)cc4)cc3)c(S(=O)(=O)O)cc2c1)c1ccccc1 | inhibition |  | Adenovirus | culture | Human embryonic lung cells | 10 µg/mL | TYPE 3 | cytopathic effect | 15%
Cc1cn([C@@H]2O[C@H](CO)[C@@H](O)[C@@H]2F)c(=O)nc1N | inhibition |  | Varicella zoster virus | culture | HELF | 0.1 µg/mL | OKA | plaque count | 100%
Cc1c(-c2ccc(Cl)c(Cl)c2)sc2nc(N)nc(N)c12 | IC50 | Dihydrofolate reductase | Cryptosporidium parvum | target |  |  | TYPE 2 |  | >10 µM
Fc1ccc(N2CCN(c3cncc(-c4ccoc4)n3)CC2)c(F)c1 | inhibition | UL97 kinase | Cytomegalovirus | target |  | 1 µM |  |  | <50%
Cc1cc(CCCOc2c(C)cc(-c3noc(C(F)(F)F)n3)cc2C)on1 | EC50 |  | Rhinovirus | culture | OHIO HELA-I |  | Isolate 14 | cytopathic effect / visual reading | 0.11 µg/mL
Fc1ccc(N2CCCCC2)c(NC(=S)c2ccncc2)c1 | inhibition | PRAK |  | host protein |  | 10 µM |  | kinase activity | 28%
NC(=O)c1cccc(-c2cncc(N3CCN(c4ccncc4)CC3)n2)c1 | inhibition | UL97 kinase | Cytomegalovirus | target |  | 1 µM |  |  | <50%
Nc1nc(N)c2nc(Cc3ccc(Cl)c(Cl)c3)c(Cc3ccc(Cl)c(Cl)c3)nc2n1 | IC50 | Dihydrofolate reductase | Cryptosporidium parvum | target |  |  | TYPE 2 |  | 0.25 µM
Cc1cccc(-c2cncc(N3CCN(c4cnccn4)CC3)n2)c1 | inhibition | UL97 kinase | Cytomegalovirus | target |  | 1 µM |  |  | <50%
CN(Cc1ccc2nc(N)nc(N)c2n1)c1ccc(Cl)c(Cl)c1 | IC50 | Dihydrofolate reductase | Cryptosporidium parvum | target |  |  | TYPE 1 |  | 0.02 µM
CC(=O)c1ccc(N2CCN(c3cncc(-c4cccc5ccccc45)n3)CC2)cc1 | IC50 | UL97 kinase | Cytomegalovirus | target |  |  |  |  | <100 µM
C=CCc1ccc(OC)c(OC)c1 | MIC90 |  | Candida tropicalis | culture |  |  | 3261 | turbidity | 350 µg/mL

Again, the opening 2 rows:

{"structure": "O=c1[nH]c(=O)n([C@@H]2O[C@H](CO)[C@@H](O)[C@@H]2O)cc1/C=C/Br", "endpoint": "inhibition", "agent": "Varicella zoster virus", "test": "culture", "cell line": "HELF", "tested at": "0.01 µg/mL", "strain": "OKA", "read by": "plaque count", "result": "100%"}
{"structure": "O=S(=O)([O-])c1ccc(O)c2ccccc12", "endpoint": "inhibition", "agent": "Herpes simplex virus", "test": "culture", "cell line": "Human amnion AV3 cells", "tested at": "5 µg/mL", "read by": "cytopathic effect", "result": "0%"}

Blank or dashed fields: not listed here. Conditions beyond the fields shown may differ between rows. ICn is the concentration giving n% inhibition. Percent inhibition refers to the dose given; in toxicity tests it is the harm to the cells. ECn: concentration that inhibits the pathogen or its effect by n%.